Assay results published in patent US20150023988A1.

Key:
Test in all cases: cell-based or functional assay
[1] = biological target: human voltage-gated sodium channel Nav1.4 (human) (UniProt P35499)
[2] = biological target: human voltage-gated sodium channel Nav1.5 (human) (UniProt Q14524)
[3] = biological target: human voltage-gated sodium channel Nav1.7 (human) (UniProt Q15858)
[4] = biological target: human voltage-gated sodium channel Nav1.7 (human), Q15858
[5] = biological target: human voltage-gated sodium channel Nav1.4 (human), P35499

Row | Molecule | PX hNav1.4 Tonic IC50 [1] | PX hNav1.5 Tonic IC50 [2] | PX hNav1.7 Tonic IC50 [3] [nM] | also measured
1 | Abu-[Nle6]JzTx-V(1-29) (peptide; modification not given) | 11 nM | 480 nM | 0.143 | 
2 | Ala-[Nle6]JzTx-V(1-29) (peptide; modification not given) |  |  | 0.307 | 
3 | AllylG-[Nle6]JzTx-V(1-29) (peptide; modification not given) |  |  | 0.488 | 
4 | Atz(NPEG10)-[Nle6]JzTx-V(1-29) (peptide; modification not given) |  |  |  | Nav1.4/Nav1.7 (ratio of IC50s) [1]: 2; IC50 (IonWorks Quattro) [3]: 70 nM
5 | CyA-[Nle6]JzTx-V(1-29) (peptide; modification not given) |  |  | 0.307 | 
6 | D-Ala-[Nle6]JzTx-V(1-29) (peptide; modification not given) | 5.1 nM | 730 nM | 0.957 | 
7 | D-Leu-[Nle6]JzTx-V(1-29) (peptide; modification not given) | 28.7 nM | 410 nM | 0.151 | 
8 | D-Phe-[Nle6]JzTx-V(1-29) (peptide; modification not given) | 6.8 nM | 620 nM | 0.351 | 
9 | Gly-[Nle6]JzTx-V(1-29) (peptide; modification not given) |  |  | 0.384 | 
10 | Ile-[Nle6]JzTx-V(1-29) (peptide; modification not given) |  |  | 0.519 | 
11 | Leu-[Nle6]JzTx-V(1-29) (peptide; modification not given) |  |  | 0.134 | 
12 | Nle-[Nle6]JzTx-V(1-29) (peptide; modification not given) | 4.6 nM | 830 nM | 0.223 | 
13 | Nva-[Nle6]JzTx-V(1-29) (peptide; modification not given) | 11.6 nM | 490 nM |  | 
14 | Phe-[Nle6]JzTx-V(1-29) (peptide; modification not given) |  |  | 0.493 | 
15 | Pra-[Nle6; Glu28]JzTx-V(1-29) (peptide; modification not given) | 130 nM |  | 0.515 | 
16 | Pro-[Nle6]JzTx-V(1-29) (peptide; modification not given) |  |  | 0.372 | 
17 | Sar-[Nle6]JzTx-V(1-29) (peptide; modification not given) | 6.1 nM | 830 nM | 0.325 | 
18 | Trp-[Nle6]JzTx-V(1-29) (peptide; modification not given) |  |  | 0.334 | 
19 | Tyr-[Nle6]JzTx-V(1-29) (peptide; modification not given) |  |  | 0.372 | 
20 | Val-[Nle6]JzTx-V(1-29) (peptide; modification not given) |  |  | 0.551 | 

Row | Molecule | PX hNav1.4 Tonic IC50 [1] | PX hNav1.5 Tonic IC50 [2] | PX hNav1.7 Tonic IC50 [3] [nM] | also measured
21 | [Ala20]JzTx-V(1-29) (peptide; modification not given) | 100 nM | 2750 nM | 12 | 
22 | [Atz(NPEG10)1; Nle6]JzTx-V(1-29) (peptide; modification not given) | 15 nM | 950 nM | 1 | Nav1.4/Nav1.7 [1]: 15 fold; Nav1.5/Nav1.7 [2]: 946 fold
23 | [Atz(NPEG10)1;Nle6]JzTx-V(1-29) (peptide; modification not given) |  |  |  | Nav1.4/Nav1.7 (ratio of IC50s) [1]: 4 and 3; IC50 (IonWorks Quattro) [2]: > 7000 nM; IC50 (IonWorks Quattro) [3]: 100 nM
24 | [Glu1, 20; Tyr28]JzTx-V(1-29) (peptide; modification not given) | 939 nM | > 10000 nM | 5.5 | 
25 | [Glu1;Tyr28]JzTx-V(1-29) (peptide; modification not given) |  |  |  | IC50 (IonWorks Quattro) [1]: 700 nM; Nav1.4/Nav1.7 (ratio of IC50s) [1]: 16; IC50 (IonWorks Quattro) [2]: > 5000 nM
26 | [Glu1]JzTx-V(1-29) (peptide; modification not given) | 8 nM | 6440 nM | 0.3 | 
27 | [Glu20,Trp29]JzTx-V(1-29) (peptide; modification not given) |  |  |  | Nav1.4 selectivity (relative to hNav1.7) [1]: > 1000 fold; average hNav1.7 IC50, PX format [3]: 1.5 nM
28 | [Glu20; 1-Nal24; Tyr28]JzTx-V(1-29) (peptide; modification not given) | 5210 nM |  | 12 | 
29 | [Glu20; Cit28]JzTx-V(1-29) (peptide; modification not given) | 6020 nM | > 10000 nM | 5.6 | 
30 | [Glu20; Nva28]JzTx-V(1-29) (peptide; modification not given) | 5190 nM | 7820 nM | 12.8 | 
31 | [Glu20; Ser28]JzTx-V(1-29) (peptide; modification not given) | 4790 nM and 3580 nM and 2970 nM | > 10000 nM and 14600 nM |  | 
32 | [Glu20; Tyr28; 1-Nal29]JzTx-V(1-29) (peptide; modification not given) | 1670 nM | 2160 nM | 4.5 | 
33 | [Glu20; Tyr28; 2-Nal29]JzTx-V(1-29) (peptide; modification not given) | 1220 nM | 1990 nM | 4.6 | 
34 | [Glu20; Tyr28; Leu29]JzTx-V(1-29) (peptide; modification not given) | 626 nM | 7330 nM | 2.6 | 
35 | [Glu20; Tyr28; Nle29]JzTx-V(1-29) (peptide; modification not given) | 786 nM | 9770 nM | 6.2 | 
36 | [Glu20; Tyr28]JzTx-V(1-29) (peptide; modification not given) | 1270 nM | 11400 nM | 0.9 | 
37 | [Glu20; Val28]JzTx-V(1-29) (peptide; modification not given) | 1310 nM | 5500 nM | 4.1 | 
38 | [Glu20;Atz(NPEG10)28]JzTx-V(1-29) (peptide; modification not given) |  |  |  | Nav1.4/Nav1.7 (ratio of IC50s) [1]: 3
39 | [Glu20;Tyr28;1-Nal29]JzTx-V(1-29) (peptide; modification not given) |  |  |  | Nav1.4/Nav1.7 (ratio of IC50s) [1]: 91; IC50 (IonWorks Quattro) [3]: 50 nM
40 | [Glu20;Tyr28;2-Nal29]JzTx-V(1-29) (peptide; modification not given) |  |  |  | IC50 (IonWorks Quattro) [1]: > 5000 nM; IC50 (IonWorks Quattro) [2]: > 5000 nM

Row | Molecule | PX hNav1.4 Tonic IC50 [1] | PX hNav1.5 Tonic IC50 [2] | PX hNav1.7 Tonic IC50 [3] [nM] | also measured
41 | [Glu28]JzTx-V(1-29) (peptide; modification not given) | 300 nM | 8800 nM | 1 | 
42 | [Glu29]JzTx-V(1-29) (peptide; modification not given) | 11300 nM | > 10000 nM | 261 | 
43 | [Nle6; Atz(NPEG10)11]JzTx-V(1-29) (peptide; modification not given) | 27 nM | 1860 nM | 9.3 | Nav1.4/Nav1.7 [1]: 3 fold; Nav1.5/Nav1.7 [2]: 200 fold
44 | [Nle6; Atz(NPEG10)29]JzTx-V(1-29) (peptide; modification not given) |  |  | 22 | 
45 | [Nle6;Atz(NPEG10)29]JzTx-V(1-29) (peptide; modification not given) |  |  |  | Nav1.4/Nav1.7 (ratio of IC50s) [1]: 2; IC50 (IonWorks Quattro) [2]: > 7000 nM; IC50 (IonWorks Quattro) [3]: 400 nM
46 | [Pra1; Nle6; Glu28]JzTx-V(1-29) (peptide; modification not given) | 150 nM | 4620 nM | 0.269 | 
47 | bAla-[Nle6]JzTx-V(1-29) (peptide; modification not given) | 3.2 nM | 700 nM | 0.951 | 
48 | hLeu-[Nle6]JzTx-V(1-29) (peptide; modification not given) | 8.5 nM | 420 nM | 0.676 | 
49 | hPhe-[Nle6]JzTx-V(1-29) (peptide; modification not given) | 4.8 nM | 440 nM | 0.476 | 
50 | VYCQKWLWTCDSKRKCCEGLECKLWCRKIW (modifications not checked) [Nva-[Nle6; Lys(Pra)14; Glu20, Trp29]JzTx-V(1-29)] |  |  |  | PX hNav1.7 Tonic IC50 [4]: 9.59 nM
51 | VYCQKWLWTCDSKRKCCEGLECKLWCRKIW (modifications not checked) [Nva-[Leu6; Lys(Pra)14; Glu20; Trp29]JzTx-V(1-29)] |  |  |  | PX hNav1.7 Tonic IC50 [4]: 10.4 nM
52 | VYCQKWLWTCDSKRKCCEGLRCKLWCRKEI (modifications not checked) [Nva-[Leu6; Lys(Pra)14; Glu28]JzTx-V(1-29)] |  |  |  | PX hNav1.4 Tonic IC50 [5]: 293 nM and 300 nM
53 | AYCQKWLWTCDSKRKCCEGLRCKLWCRKII (modifications not checked) [CyA-[Nle6, Lys(Pra-NPEG3)14]JzTx-V(1-29)] |  |  |  | PX hNav1.7 Tonic IC50 [4]: 0.885 nM and 0.845 nM
54 | VYCQKWLWTCDSKRKCCEGLRCKLWCRKEI (modifications not checked) [Nva-[Nle6; Lys(Pra)14; Glu28]JzTx-V(1-29)] |  |  |  | PX hNav1.4 Tonic IC50 [5]: 217 nM; PX hNav1.7 Tonic IC50 [4]: 2.19 nM
55 | VYCQKWLWTCDSKRKCCEGLECKLWCRKYI (modifications not checked) [Nva-[Leu6; Lys(Pra)14; Glu20; Tyr28]JzTx-V(1-29)] |  |  |  | PX hNav1.7 Tonic IC50 [4]: 1.95 nM
56 | AYCQKWLWTCDSKRKCCEGLECKLWCRKII (modifications not checked) [CyA-[Nle6, Lys(Pra)14, Glu20]JzTx-V(1-29)] |  |  |  | PX hNav1.4 Tonic IC50 [5]: > 10000 nM; PX hNav1.7 Tonic IC50 [4]: > 100 nM
57 | DCLGFFRKCIPDADKCCRPNLVCSRTHKWCKYVF (modifications not checked) [[Phe6,Atz(500 Da EtO-PEG*-{[Phe6,Atz13*]GpTx-1(1-34)})13]GpTx-1(1-34)] |  |  |  | Nav1.7 PX IC50 [4]: 19 nM
58 | AYCQKWLWTCDSKRACCKGLRCKLWCRKII (modifications not checked) [CyA-[Nle6, Lys(Pra-NPEG3)17]JzTx-V(1-29)] |  |  |  | PX hNav1.7 Tonic IC50 [4]: 3.64 nM
59 | VYCQKWLWTCDSKRKCCEGLECKLWCRKYI (modifications not checked) [Nva-[Nle6; Lys(Pra)14; Glu20; Tyr28]JzTx-V(1-29)] |  |  |  | PX hNav1.7 Tonic IC50 [4]: 2.96 nM

“And” between values parts separate entries of the source, which are not always exact repeats. Equal values may be shown once.
